Experimental data reported in PubChem BioAssay AID1259311 (ICCB-Longwood Screening Facility, Harvard Medical School, 2017).
The entries are a selection whose mix differs from that of the whole data set. Some salts and complexes are drawn in separate pieces, as the source files them; their charges need not balance. Activity calls are given as the source filed them. No stated cut-off is given here; in the data, active means inhibition above about 85%; inactive means the rest.

assay: growth inhibition of S. aureus RN4220, primary screen, OD600 (AID 1259311); conditions: OD600, 16 h, active compounds read high;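 further: plate controls were untreated cells for no effect and reference antibiotic for full effect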

| Structure (SMILES) | inhibition |
| --- | --- |
| Nc1ccc([As](=O)(O)c2ccc([N+](=O)[O-])cc2)cc1 | inactive: 6.26% |
| C(Cc1nn[nH]n1)Cc1nn[nH]n1 | inactive: 3.46% |
| O=C(OC1CN2CCC1CC2)c1cccc(Cl)c1 (stereo unspecified) | inactive: 3.07% |
| O=[N+]([O-])c1ncn(CCn2cnc([N+](=O)[O-])n2)n1 | inactive: -4.73% |
| CC(=O)NC(SC(=S)N(C)C)C(Cl)(Cl)Cl (stereo unspecified) | inactive: 13.8% |
| O=[N+]([O-])c1ccc(OP2(=O)COCCO2)cc1 (stereo unspecified) | inactive: 2.07% |
| O=[As](O)(c1ccccc1)c1ccc(O)cc1 | inactive: 1.58% |
| O=[N+]([O-])c1cc([N+](=O)[O-])c(NCC2CCS(=O)(=O)C2)c([N+](=O)[O-])c1 (stereo unspecified) | active: 86.9% |
| Cc1cc(-c2cccc3ccccc23)c(C)cn1.O=[N+]([O-])c1cc([N+](=O)[O-])c(O)c([N+](=O)[O-])c1 | inactive: 1.97% |
| CN(C(=O)Cc1ccc(Cl)c(Cl)c1)C1CC[C@@]2(CCCO2)CC1N1CCCC1 (stereo partly specified) | inactive: 3.64% |
| CCN(C(=NP(=O)(N1CCOCC1)N1CCOCC1)N1CCOCC1)c1ccc(OC)cc1 | inactive: 5.93% |
| O=P(Nc1nc2ccccc2s1)(c1ccccc1)c1ccccc1 | inactive: 2.12% |
| COc1ccc(NP(C)(=O)Oc2ccccc2OC)cc1 (stereo unspecified) | inactive: 6.53% |
| COc1ccc(OP(C)(=O)Nc2cccc(Br)c2)cc1 (stereo unspecified) | inactive: 3.68% |
| CC(C)C=NN=C(N)N[N+](=O)[O-] | inactive: -0.161% |
| COc1ccc(N)c([N+](=O)[O-])c1[N+](=O)[O-] | inactive: 3.69% |
| C=CCN1CCN(CCOC(=O)C(O)(c2ccccc2)c2ccccc2)CC1 | inactive: -2% |
| O=P(Nc1ccccn1)(c1ccc(Br)cc1)c1ccc(Br)cc1 | inactive: 1.88% |
| CN(C)C1(CNC(=O)c2ccc(Cl)c(S(N)(=O)=O)c2)CCCCC1 | inactive: 0.559% |
| NS(=O)(=O)c1cccc(NC(=O)COC(=O)C(O)(c2ccccc2)c2ccccc2)c1 | inactive: -1.53% |
| O=[As](O)(c1cccs1)c1cccs1 | inactive: 11.7% |
| Cc1ccc(OCC(=O)OC2CN3CCC2CC3)cc1 (stereo unspecified) | inactive: 3.8% |
| CP(=O)(Nc1ccc(SC(F)(F)F)cc1)Oc1ccccc1 (stereo unspecified) | inactive: 1.33% |
| Nc1cccc([As](=O)(O)c2ccccc2)c1 | inactive: 1.31% |

| Structure (SMILES) | inhibition |
| --- | --- |
| CCCOc1ccc(NP(C)(=O)Oc2ccc(Cl)cc2)cc1 (stereo unspecified) | inactive: 2.97% |
| O=P1(Nc2ncccn2)COc2ccccc2OC1 | inactive: 4.44% |
| COc1ccccc1OP(C)(=O)Nc1c(C)cccc1C (stereo unspecified) | inactive: 2.88% |
| CN1CCCCC1COC(=O)C1(O)c2ccccc2CCc2ccccc21 (stereo unspecified) | inactive: 4.09% |
| O=C(/C=C/c1ccccc1)OC1CN2CCC1CC2 (stereo unspecified) | inactive: 4.08% |
| CCCC1OP(=O)(Nc2ccccc2)OCC1CC (stereo unspecified) | inactive: 5.74% |
| O=[N+]([O-])c1cc([N+](=O)[O-])c(Nc2nnnn2CCO)c([N+](=O)[O-])c1 | inactive: 32.3% |
| CN(C)C1(CNC(=O)c2ccc(S(C)(=O)=O)cc2)CCCCC1 | inactive: 3.75% |
| CCOC(=O)C(CC)C1=NC(C)(C)Cc2ccccc21.O=[N+]([O-])c1cc([N+](=O)[O-])c(O)c([N+](=O)[O-])c1 (stereo unspecified) | inactive: 3.4% |
| COc1cc(C2NCCC3(OCCO3)C2(C)C)cc(OC)c1OC.O=[N+]([O-])c1cc([N+](=O)[O-])c(O)c([N+](=O)[O-])c1 (stereo unspecified) | inactive: 5.86% |
| Cc1nn(-c2ccccc2)c2c1P(=O)(N1CCOCC1)N(C)C(c1ccccc1)=N2 (stereo unspecified) | inactive: 2.49% |
| CC1CCC(C(C)C)C(OP(=O)(Nc2ccccn2)c2ccccc2)C1 (stereo unspecified) | inactive: 5.55% |
| Cc1ccc(C(=O)OC2CN3CCC2CC3)cc1 (stereo unspecified) | inactive: 5.58% |
| O=[As](O)(c1ccccc1Br)c1ccccc1Br | inactive: -1.53% |
| Cc1nc2ccc3ccccc3c2s1.O=[N+]([O-])c1cc([N+](=O)[O-])c(O)c([N+](=O)[O-])c1 | inactive: 8.37% |
| CC1(CBr)Cn2c(nc3ccccc3c2=O)S1 (stereo unspecified) | inactive: 5.98% |
| COc1ccccc1CNC(=O)COC(=O)C(O)(c1ccccc1)c1ccccc1 | inactive: 4.01% |
| O=[N+]([O-])c1cc([N+](=O)[O-])c(-c2cnn(-c3ccccc3)c2)c([N+](=O)[O-])c1 | inactive: 8.27% |
| Clc1n[nH]nc1-c1nn[nH][15n]1 | inactive: -1.16% |
| CC(C)(C)C(=O)NC(Sc1ncccn1)C(Cl)(Cl)Cl (stereo unspecified) | inactive: 1.16% |
| CCOP(=O)(Nc1ccc(C)cn1)OCC | inactive: 3.16% |
| O=P1(Nc2ccccn2)COc2ccccc2OC1 | inactive: 3.67% |
| O=[N+]([O-])c1cc([N+](=O)[O-])c(-n2nnc3ccccc32)c([N+](=O)[O-])c1 | inactive: 1.97% |
| CCOP(=O)(Nc1cccc2ccccc12)OCC | inactive: 5.97% |

| Structure (SMILES) | inhibition |
| --- | --- |
| CCCOP(=S)(Nc1nc(N)cc(=O)[nH]1)OCCC | inactive: 0.816% |
| Cc1ccc(C)c(NP(C)(=O)Oc2ccccc2)c1 (stereo unspecified) | inactive: 4.75% |
| CP(=O)(Nc1cccc(Br)c1)Oc1ccccc1 (stereo unspecified) | inactive: 1.85% |
| Cc1cc(C)cc(OP(C)(=O)Nc2ccccn2)c1 (stereo unspecified) | inactive: 5.14% |
| Cc1ccc(NCCc2c([N+](=O)[O-])cc([N+](=O)[O-])cc2[N+](=O)[O-])cc1 | inactive: 0.801% |
| CCOC(=O)c1ccc(NP(C)(=O)Oc2cc(C)cc(C)c2)cc1 (stereo unspecified) | inactive: 5.84% |
| CC1C=CCP(=O)(Oc2ccccc2)O1 (stereo unspecified) | inactive: 2.41% |
| O=[As](O)(c1cccc(O)c1)c1cccc(O)c1 | inactive: -0.571% |
| Cc1cccc(OCC(=O)OC2CN3CCC2CC3)c1 (stereo unspecified) | inactive: 0.787% |
| Cc1cc(C)cc(OP(C)(=O)Nc2ccc(C)cc2C)c1 (stereo unspecified) | inactive: -0.968% |
| COc1cc(C(=O)NCC2(N3CCOCC3)CCCCC2)cc(Cl)c1OC(C)C | inactive: 1.71% |
| O=[As](O)(O)c1cccnc1 | inactive: 3.47% |
| CS(=O)(=O)c1ccc(Cl)c(NC(=O)COC(=O)C(O)(c2ccccc2)c2ccccc2)c1 | inactive: 2.32% |
| COc1ccccc1OP(C)(=O)Nc1cccc(Br)c1 (stereo unspecified) | inactive: 4% |
| O=C(OC1CN2CCC1CC2)c1ccc(Cl)cc1 (stereo unspecified) | inactive: -1.29% |
| CN(C)C(=O)c1cc([N+](=O)[O-])cc2c1-c1c(cc([N+](=O)[O-])cc1[N+](=O)[O-])C2=O | inactive: 13.5% |
| O=[N+]([O-])c1ccc2c(c1)nnn2O | inactive: -1.35% |
| CC1=NCCc2c1[nH]c1ccccc21.O=[N+]([O-])c1cc([N+](=O)[O-])c(O)c([N+](=O)[O-])c1 | inactive: 4.82% |
| Cc1ccc(NC(=NP(=O)(N2CCOCC2)N2CCOCC2)N2CCOCC2)cc1 | inactive: -0.0921% |
| N#CCCN(C(=O)COC(=O)C(O)(c1ccccc1)c1ccccc1)c1ccc(F)cc1 | inactive: -0.171% |
| CCOP1(=S)c2c(C)nn(CCC#N)c2N=C(c2ccc(F)cc2)N1C (stereo unspecified) | inactive: 3.28% |
| NC(=O)Nc1ccc([As](=O)(O)O)cc1 | inactive: -1.22% |
| Nc1ccccc1[As](=O)(O)c1ccccc1 | inactive: 2.06% |
| O=C(O)COc1ccc([As](=O)(O)O)cc1[N+](=O)[O-] | inactive: 5.11% |

| Structure (SMILES) | inhibition |
| --- | --- |
| CCOP1(=S)c2c(C)nn(CCC#N)c2N=C(c2ccccc2F)N1C (stereo unspecified) | inactive: -4.57% |
| O=C(O)c1cccc(Nc2c([N+](=O)[O-])cc([N+](=O)[O-])cc2[N+](=O)[O-])c1 | inactive: 5.92% |
| O=P(Nc1nccs1)(c1ccccc1)c1nc2ccccc2s1 (stereo unspecified) | inactive: 1.18% |
| O=P(Nc1nccs1)(Oc1ccccc1)Oc1ccccc1 | inactive: 6.26% |
| Cc1cc(C)cc(OP(C)(N)=O)c1 (stereo unspecified) | inactive: 1.45% |
| O=C(OC1CN2CCC1CC2)c1cccc2[nH]cnc12 (stereo unspecified) | inactive: 0.471% |
| CCN(CC)C(=S)SC(NC=O)C(Cl)(Cl)Cl (stereo unspecified) | inactive: 9.65% |
| COc1ccccc1OP(C)(=O)Nc1cc(Cl)ccc1C (stereo unspecified) | inactive: 5.5% |
| CC(C)NC(=O)NP(=O)(Oc1ccccc1)Oc1ccccc1 | inactive: -1.69% |
| O=[N+]([O-])c1cc([N+](=O)[O-])c(-c2ccn[nH]2)s1 | inactive: 51.8% |
| COc1ccc(OP(C)(=O)Nc2cccc(F)c2)cc1 (stereo unspecified) | inactive: 1.89% |
| COc1ccccc1OP(C)(=O)Nc1ccc(C)cc1 (stereo unspecified) | inactive: 5.4% |
| CC(C)c1ccc(OP(=O)(Nc2ccccn2)Oc2ccccc2F)cc1 (stereo unspecified) | inactive: 7.7% |
| Cc1ccc(NP(C)(=O)Oc2ccccc2)c(C)c1 (stereo unspecified) | inactive: 3.45% |
| CCOC(=O)c1ccc(NP(C)(=O)Oc2ccccc2)cc1 (stereo unspecified) | inactive: -2.71% |
| COc1ccc2c(c1O)-c1c(O)c(OC)cc3c1C(C2)[N+](C)(C)CC3.O=[N+]([O-])c1cc([N+](=O)[O-])c([O-])c([N+](=O)[O-])c1[O-] (stereo unspecified) | inactive: 3.15% |
| ClCCSc1nnc(-c2cccnc2)o1 | inactive: 4.42% |
| Cc1ccc2nc3c(c(C)c2c1)CC(C(Cl)Cl)S3 (stereo unspecified) | inactive: 6.99% |
| O=[N+]([O-])c1ccc2c(c1)C=Nc1ccccc1O2 | inactive: 8.43% |
| CC(C)(C)c1ccc(OP(C)(=O)Nc2ccc(SC(F)(F)F)cc2)cc1 (stereo unspecified) | inactive: -16.7% |
| Cc1ccc(OP(=O)(Nc2ccc([N+](=O)[O-])cn2)Oc2ccc(C)cc2)cc1 | inactive: 1.66% |
| Cc1cccc(C)c1OP(C)(N)=O (stereo unspecified) | inactive: 0.787% |
| C[As](=O)(O)c1cccc(C(=O)O)c1 | inactive: 3.67% |
| O=[As](O)(c1ccc(O)cc1)c1ccccc1O | inactive: 0.755% |
